{"source": "paper PMC4708017", "about": "“Antiplasmodial activity of iron(II) and ruthenium(II) organometallic complexes against Plasmodium falciparum blood parasites” (Memórias do Instituto Oswaldo Cruz, 2015)", "system": "HepG2 human hepatoma cells", "settings": "MLD50 HepG2 / IC50 P. falciparum W2", "experimental": "The SI was calculated in order to give an insight into the therapeutic index of the molecules, i.e., how far the toxic concentration is from the therapeutic one."}
{"compound": "CCC(=C(c1ccccc1)c1ccccc1)c1ccccc1", "note": "[Compound 1]", "values": [{"measurement": "SI (MLD50/IC50)", "result": 42}]}
{"compound": "CCC(=C(c1ccc(O)cc1)c1ccc(OCCCN(C)C)cc1)c1ccccc1", "note": "[Compound 2]", "values": [{"measurement": "SI (MLD50/IC50)", "result": "Toxic (Molecules with SI ≤ 10 were also considered toxic)"}]}
